Source: ChEMBL document CHEMBL5729349 (2022)

Test: Inhibition of Authentic Filovirus Infections in Cell Culture Assays: The authentic filoviruses Ebola virus/H. sapiens-tc/COD/1995/Kikwit-9510621 (EBOV/Kik-9510621; ‘EBOV-Zaire 1995’) (Jahrling et al., J. Infect. Dis., 179 Suppl 1:S224-234 (1999)), Sudan virus/H. sapiens-gp-tc/SDN/1976/Boniface-USAMRIID 111808 (SUDV/Bon-USAMRIID 111808; ‘SUDV-Boniface 1976’) (Anonymous, Ebola haemorrhagic fever in

Row | SMILES | IC50 [nM]
1 | O=[N+]([O-])c1ccc(N2CCN(C3CCc4ccccc4C3)CC2)cc1NC(c1ccccc1)c1ccccc1 (stereo not drawn) | 1400
2 | O=[N+]([O-])c1ccc(N2CCN(Cc3ccco3)CC2)cc1NC(c1ccccc1)c1ccccc1 | 1200
3 | O=[N+]([O-])c1ccc(N2CCN(CC3CC3)CC2)cc1NC(c1ccccc1)c1ccccc1 | < 600
4 | CN1CCN(c2cc(NC(c3ccccc3)c3ccccc3)cc(C(F)(F)F)c2)CC1 | 900
5 | CN1CCN(c2ccc3[nH]c(=O)n(C(c4ccccc4)c4ccccc4)c3c2)CC1 | > 20000
6 | CCN1CCN(c2ccc([N+](=O)[O-])c(NC(c3ccccc3)c3ccccc3)c2)CC1 | 1100
7 | O=[N+]([O-])c1ccc(N2CCN(Cc3ccncc3)CC2)cc1NC(c1ccccc1)c1ccccc1 | 1700
8 | CC(=O)N1CCN(c2ccc([N+](=O)[O-])c(NC(c3ccccc3)c3ccccc3)c2)CC1 | 2000
9 | CN1CCN(c2ccc3ncn(C(c4ccccc4)c4ccccc4)c3c2)CC1 | > 20000
10 | O=[N+]([O-])c1ccc(N2CCN(C3Cc4ccccc4C3)CC2)cc1NC(c1ccccc1)c1ccccc1 | 8000
11 | O=[N+]([O-])c1ccc(N2CCN(Cc3ccoc3)CC2)cc1NC(c1ccccc1)c1ccccc1 | > 20000
12 | CN1CCN(c2ccc(C(F)(F)F)c(NC(c3ccccc3)c3ccccc3)c2)CC1 | 2500
13 | CN1CCN(c2ccc([N+](=O)[O-])c(NC(c3ccccc3)c3ccc(Cl)cc3)c2)CC1 (stereo not drawn) | > 20000
14 | COc1ccccc1C(Nc1cc(N2CCN(C)CC2)ccc1[N+](=O)[O-])c1ccccc1 (stereo not drawn) | 3000
15 | CN1CCN(c2cccc(NC(c3ccccc3)c3ccccc3)c2)CC1 | 1600
16 | CN1CCN(c2ccc([N+](=O)[O-])c(NCc3ccccc3)c2)CC1 | 15000
17 | Cc1ccccc1C(Nc1cc(N2CCN(C)CC2)ccc1[N+](=O)[O-])c1ccccc1 (stereo not drawn) | 780
18 | C/C=C/CN1CCN(c2ccc([N+](=O)[O-])c(NC(c3ccccc3)c3ccccc3)c2)CC1 | 1700
19 | O=[N+]([O-])c1ccc(N2CCN(Cc3ccccn3)CC2)cc1NC(c1ccccc1)c1ccccc1 | 1900
20 | CN1CCC(N(C)c2ccc([N+](=O)[O-])c(NC(c3ccccc3)c3ccccc3)c2)CC1 | 10300
21 | O=[N+]([O-])c1ccc(N2CCN(C3CCC3)CC2)cc1NC(c1ccccc1)c1ccccc1 | 730
22 | CN1CCN(c2ccc3ncn(C(C)(C)c4ccccc4)c3c2)CC1 | 530
23 | CN1CCC(N2CCN(c3ccc([N+](=O)[O-])c(NC(c4ccccc4)c4ccccc4)c3)CC2)CC1 | > 20000
24 | [N-]=[N+]=Nc1ccc(CN2CCN(c3ccc([N+](=O)[O-])c(NC(c4ccccc4)c4ccccc4)c3)CC2)cc1 | 600
25 | CCCCN1CCN(c2ccc([N+](=O)[O-])c(NC(c3ccccc3)c3ccccc3)c2)CC1 | 2800
26 | c1ccc(C(c2ccccc2)n2cnc3ccc(N4CCN5CCCCC5C4)cc32)cc1 (stereo not drawn) | 1800
27 | CN1CCN(c2cc(NC(c3ccccc3)c3ccccc3)cc(OC(F)(F)F)c2)CC1 | 3100
28 | O=[N+]([O-])c1ccc(N2CCN(Cc3ccccc3)CC2)cc1NC(c1ccccc1)c1ccccc1 | 4500
